{
  "source": "patent US20060258596A1",
  "about": "“Antimicrobial agents” (published 2006)",
  "key": {"[1]": {"tested_on": "Stenotrophomonas maltophilia", "test": "Growth inhibition of Stenotrophomonas maltophilia"}, "Enterobacteriacae": {"tested_on": "Enterobacteriacae", "test": "Growth inhibition of Enterobacteriacae"}, "Burkholderia spp.": {"tested_on": "Burkholderia spp.", "test": "Growth inhibition of Burkholderia spp."}},
  "data": [
    {"substance": "LCSYIDV", "values": [
      {"measurement": "inhibition of growth of Stenotrophomonas maltophilia", "setting": "[1]", "result": "inhibits the growth"},
      {"measurement": "inhibition of growth of Enterobacteriacae", "setting": "Enterobacteriacae", "result": "inhibits the growth"},
      {"measurement": "concentration inhibiting P. aeruginosa", "setting": "P. aeruginosa", "result": "sub-μm"},
      {"measurement": "inhibition of growth of P. aeruginosa", "setting": "P. aeruginosa", "result": "inhibits the growth"},
      {"measurement": "concentration displaying antibacterial activity towards P. aeruginosa", "setting": "P. aeruginosa; HPLC-purified peptide, FIG. 3", "result": 1, "unit": "nM"},
      {"measurement": "inhibition of growth of Burkholderia spp.", "setting": "Burkholderia spp.", "result": "inhibits the growth"}
    ]}
  ]
}
